Measured values from several laboratories, pooled; numbers as filed in NIAID ChemDB.

All rows: tests in culture; species: Tacaribe virus

An empty or dashed field is not shown. Lines come from different laboratories, so protocols vary. ECn: concentration that inhibits the pathogen or its effect by n%.

| compound | strain | cells | read by | endpoint | value |
|---|---|---|---|---|---|
| Nc1nc(F)nc2c1ncn2[C@@H]1C=C(CO)[C@@H](O)[C@H]1O | - | VERO | cytopathic effect | EC50 | 0.7 µg/mL |
| O=C(N/N=C/c1ccc(Cl)cc1Cl)c1ccccc1SSc1ccccc1C(=O)N/N=C/c1ccc(Cl)cc1Cl | 11573 | VERO | virus yield | EC50 | 20.6 µM |
| C#C[C@@H](O)C1=C[C@@H](n2cnc3c(N)ncnc32)[C@H](O)[C@@H]1O | - | VERO | cytopathic effect | EC50 | >50 µg/mL |
| Nc1nc2c(ncn2CCCC(O)CF)c(=O)[nH]1 | - | VERO | cytopathic effect | EC50 | >200 µg/mL |
| c1ccc(SSc2ccccn2)nc1 | 11573 | VERO | virus yield | EC50 | 37.5 µM |
| Nc1nccc2c1ncn2[C@@H]1CC[C@@H](O)[C@H]1O | - | - | - | MIC | 0.01 µg/mL |
| O=[N+]([O-])c1cccc(SSc2cccc([N+](=O)[O-])c2)c1 | 11573 | VERO | virus yield | EC50 | 12.5 µM |
| Nc1ccn([C@@H]2C[C@H](CO)[C@@H](O)[C@H]2O)c(=O)n1 | - | VERO | cytopathic effect | EC50 | 0.3 µg/mL |
| Nc1ncnc2c1ncn2CCCC(O)CF | - | VERO | cytopathic effect | EC50 | >50 µg/mL |
| O=c1ccn([C@@H]2O[C@H](CO)[C@](O)(C(F)(F)F)[C@H]2O)c(=O)[nH]1 | - | VERO | cytopathic effect | EC50 | >200 µg/mL |
| Nc1ncnc2c1ccn2[C@@H]1C[C@H](O)[C@@H](O)[C@H]1O | - | VERO | - | EC50 | 8 µg/mL |
| Nc1nccc2c1ncn2[C@@H]1C=C[C@@H](O)[C@H]1O | - | - | - | MIC | 3 µg/mL |
| CC[C@@H](O)C1=C[C@@H](n2cnc3c(N)ncnc32)[C@H](O)[C@@H]1O | - | VERO | cytopathic effect | EC50 | >50 µg/mL |
| Nc1ncnc2c1ncn2[C@@H]1O[C@H](CO)[C@](O)(C(F)(F)F)[C@H]1O | - | VERO | cytopathic effect | EC50 | 14 µg/mL |
| Nc1ncnc2c1ncn2[C@@H]1C=C[C@@H](O)[C@H]1O | - | - | - | MIC | 2 µg/mL |

The last 2 rows once more:

compound,strain,cells,read by,endpoint,value
Nc1ncnc2c1ncn2[C@@H]1O[C@H](CO)[C@](O)(C(F)(F)F)[C@H]1O,-,VERO,cytopathic effect,EC50,14 µg/mL
Nc1ncnc2c1ncn2[C@@H]1C=C[C@@H](O)[C@H]1O,-,-,-,MIC,2 µg/mL